In test [1] the test system is SARS-CoV-2 in Vero E6 cells. Put plainly: Anti-CoV-2 activity in Vero E6 cells. As to conditions: for pEC50: read-out: Anti-CoV-2 EC50 Vero E6 Cells. Type of test: cell-based.
Another test has as its target SARS-CoV-2 3CL protease (Severe acute respiratory syndrome coronavirus 2 (2019-nCoV) (SARS-CoV-2), UniProt P0DTD1). As to conditions: read-out: Ki* 3CLpro; pH 7.5.
The test system of test [2] is SARS-CoV-2 in A549/ACE2 cells. As to conditions: read-out: Anti-CoV-2 EC50 A549/ACE2 Cells.
The target of another test is cruzain (Trypanosoma cruzi, UniProt P25779). To be noted: read-out: Ki* Cruzain; obtained >10 minutes following initiation of reaction by addition of enzyme; pH 7.5.

Protein sequences, listed by entry. Tags and fused reporters are not part of them. Residues count along the entry.
UniProt P25779, 123-467 limits assumed: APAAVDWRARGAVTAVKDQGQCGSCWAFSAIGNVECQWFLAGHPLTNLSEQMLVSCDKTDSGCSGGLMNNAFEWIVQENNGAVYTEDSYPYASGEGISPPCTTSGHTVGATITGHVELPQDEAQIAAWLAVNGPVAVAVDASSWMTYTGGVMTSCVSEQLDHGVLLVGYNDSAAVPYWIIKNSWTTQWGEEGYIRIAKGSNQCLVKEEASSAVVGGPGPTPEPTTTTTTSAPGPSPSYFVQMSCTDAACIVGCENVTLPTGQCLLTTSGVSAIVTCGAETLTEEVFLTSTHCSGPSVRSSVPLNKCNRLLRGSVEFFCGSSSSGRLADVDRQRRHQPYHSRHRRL

pEC50, pKi: −log10 of the molar value.

We go through seven molecules from US20240150396A1 (The Texas A&M University System, priority 2021, published 2024).

By pKi is commonly meant −log10 of the Ki, conventionally taken in molar units. As for `CC(=O)N[C@H](C(=O)N1CCC[C@H]1C(=O)N[C@H](C=O)Cc1ccc[nH]c1=O)C(C)C`, the pEC50 in test [1] and in test [2] was below 4.70 in each case. At SARS-CoV-2 3CL protease, the pKi was 5.94.
With `CC(=O)N[C@H](C(=O)N[C@@H](CC1CCCCC1)C(=O)N[C@H](C=O)Cc1ccc[nH]c1=O)C(C)C`, the pEC50 in test [1] was below 4.70. Besides, the pKi at SARS-CoV-2 3CL protease was 7.22.
For the molecule `O=C[C@H](Cc1ccc[nH]c1=O)NC(=O)[C@H](Cc1ccc([N+](=O)[O-])cc1)NC(=O)c1cc2ccccc2[nH]1`, the pEC50 in test [1] and in test [2] was below 4.70 in each case.
With `CC(=O)N[C@H](C(=O)N1CCC[C@H]1C(=O)N[C@H](C#N)Cc1ccc[nH]c1=O)C(C)C`, the pEC50 in test [1] and in test [2] was below 4.70 throughout. Also, the pKi on SARS-CoV-2 3CL protease is 6.84.
For the molecule `CC(C)C[C@H](NC(=O)c1cc2ccccc2[nH]1)C(=O)N[C@H](C=O)Cc1ccc[nH]c1=O`, the pEC50 in test [1] and in test [2] was below 4.70 throughout.
On to `CN1CCN(C(=O)N[C@@H](Cc2ccccc2)C(=O)N[C@H](C=O)Cc2ccc[nH]c2=O)CC1`, for which, at cruzain, the pKi was 8.70. Further, in test [1], the “Anti-CoV-2 EC50 Vero E6 Cells” value is “no activity” and the pEC50 is below 4.70. Besides, the pEC50 in test [2] was below 4.70.
On to `CC(C)[C@H](NC(=O)OCc1ccccc1)C(=O)N[C@@H](CC1CCCCC1)C(=O)N[C@H](C=O)Cc1ccc[nH]c1=O`, for which the pKi at SARS-CoV-2 3CL protease is 8.05. Also, the pEC50 in test [2] is 5.30.
